Data source: PubChem BioAssay AID624099 (ICCB-Longwood, 2012)
Shown is a random part of about 21,000 deposited reagents. In the full data, 497 (2.4%) were called active. 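Higher z means weaker E2 silencing; only reporter increases were scored, and knock-downs that hurt cell survival may mask genuine repressor factors.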 Reagent sequences are not shown.

- Screen: 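Host factors E2 relies on to silence an HPV18 LCR reporter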 (primary screen)
- Cells: human C33A cervical carcinoma cells (HPV-negative) stably expressing BPV1 E2 and an HPV18 LCR luciferase reporter
- Knock-down reagent: siRNA pool against human genes, 40 nM
- Duration: 72 h
- Measurement: 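Per-well luciferase luminescence, z-scored on each plate against the plate mean and SD with control wells left out, then averaged across three replicate plates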
- Scale: mean z-score and z-score: higher = stronger reporter signal, weaker E2 silencing
- Hit rule: 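Mean z ≥ 2 together with z ≥ 2 in two or more of the three replicates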

| Target gene | mean z-score | z-score, replicate A | z-score, replicate B | z-score, replicate C | outcome |
| --- | --- | --- | --- | --- | --- |
| CELA3A (chymotrypsin like elastase 3A) | 1.44 | 1.28 | 1.45 | 1.58 | inactive |
| SAR1AP3 (secretion associated Ras related GTPase 1A pseudogene 3) | -0.81 | -0.82 | -0.93 | -0.69 | inactive |
| LPAR4 (lysophosphatidic acid receptor 4) | -0.37 | -0.1 | -0.63 | -0.38 | inactive |
| SCCPDH (saccharopine dehydrogenase (putative)) | 0.85 | 0.42 | 1.05 | 1.07 | inactive |
| LRFN2 | -1.8 | -1.9 | -1.87 | -1.65 | inactive |
| PNPLA7 (patatin like domain 7, lysophospholipase) | -0.16 | 0.08 | -0.34 | -0.23 | inactive |
| POPDC1 (popeye domain cAMP effector 1) | 0.05 | 0.01 | 0 | 0.14 | inactive |
| FH (fumarate hydratase) | 0.3 | 0.45 | 0.38 | 0.07 | inactive |
| VASH2 (vasohibin 2) | 0.6 | 0.79 | 0.96 | 0.05 | inactive |
| SKIC2 (SKI2 subunit of superkiller complex) | 0.07 | 0.06 | -0.08 | 0.24 | inactive |
| PGC (progastricsin) | -0.94 | -1.08 | -1.04 | -0.71 | inactive |
| NME5 (NME/NM23 family member 5) | 0.24 | -0.07 | 0.5 | 0.3 | inactive |
| RIPPLY2 (ripply transcriptional repressor 2) | 0.56 | 0.22 | 0.88 | 0.57 | inactive |
| GPAM (glycerol-3-phosphate acyltransferase, mitochondrial) | 0.19 | 0.6 | 0.34 | -0.38 | inactive |
| CST2 (cystatin SA) | -0.58 | -0.58 | -0.7 | -0.48 | inactive |
| LINC01913 (long independently transcribed non-coding RNA 1913) | -0.57 | -0.35 | -0.56 | -0.78 | inactive |
| SPECC1 | -0.21 | -0.21 | -0.04 | -0.39 | inactive |
| SNRNP200 (small nuclear ribonucleoprotein U5 subunit 200) | 0.28 | 0.62 | -0.13 | 0.37 | inactive |
| PDCD10 (programmed cell death 10) | 0.81 | 1.71 | 0.59 | 0.13 | inactive |
| RPL23AP37 (ribosomal protein L23a pseudogene 37) | -1.93 | -1.68 | -2.29 | -1.83 | inactive |
| GALR2 (galanin receptor 2) | -0.02 | 0.04 | -0.06 | -0.02 | inactive |
| VEPH1 (ventricular zone expressed PH domain containing 1) | 0.34 | 0.95 | -0.05 | 0.12 | inactive |
| SP110 (SP110 nuclear body protein) | -0.91 | -1.77 | 0.48 | -1.43 | inactive |

3 successive entries from above, quoted:
| Target gene | mean z-score | z-score, replicate A | z-score, replicate B | z-score, replicate C | outcome |
| --- | --- | --- | --- | --- | --- |
| SKIC2 (SKI2 subunit of superkiller complex) | 0.07 | 0.06 | -0.08 | 0.24 | inactive |
| PGC (progastricsin) | -0.94 | -1.08 | -1.04 | -0.71 | inactive |
| NME5 (NME/NM23 family member 5) | 0.24 | -0.07 | 0.5 | 0.3 | inactive |
